## Genome-wide point mutation profile of HIV-1: Vif

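Random point mutant libraries of HIV-1 NL4-3, one for each of seven fragments, were passaged in CEM T lymphocytes. Sequencing gave the RC index: frequency after two rounds over frequency in the input plasmid.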

Protein: Vif of HIV-1 NL4-3, numbered from its first residue. The source prints no sequence; the chain below is taken from UniProt P12504, a closely related isolate, and fits the source at the 145 positions it covers.
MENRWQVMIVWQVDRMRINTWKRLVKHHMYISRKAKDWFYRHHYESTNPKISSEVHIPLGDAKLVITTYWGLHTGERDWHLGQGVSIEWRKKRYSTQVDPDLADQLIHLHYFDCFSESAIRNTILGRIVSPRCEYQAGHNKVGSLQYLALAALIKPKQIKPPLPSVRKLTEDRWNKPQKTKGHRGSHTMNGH
"Other frame" gives the effect on an overlapping gene as the source lists it; other overlaps (genes, RNA elements) are not shown.

RC index: lower means poorer replication; rough cut-offs are 0.1 (lethal) and 0.2 (tolerated). Each entry names the wild-type residue, its position and the residue put in its place. Input reads are the counts in the plasmid library.

change | base | other frame | input reads | replication capacity index
W38R | T5152C | none | 254 | 0.0906
R17S | G5091T | integrase D288Y | 116 | 0.176
M16K | T5087A | integrase D286E | 246 | 0.0416
K92T | A5315C | none | 52 | 0.119
A152V | C5495T | none | 313 | 0.0910
N3S | A5048G | integrase silent | 182 | 0.0617
T67A | A5239G | none | 232 | 0.0268
K160E | A5518G | none | 270 | 0.0410
R167M | G5540T | none | 286 | 0.0387
V166I | G5536A | none | 212 | 0.187
E134D | A5442T | none | 431 | 0.0448
D101N | G5341A | none | 223 | 0.453
I154M | A5502G | none | 191 | 0.0746
R93S | A5319T | none | 207 | 0.0300
A151T | G5491A | none | 299 | 0.365
I87L | A5299T | none | 389 | 0.0359
N48D | A5182G | none | 239 | 0.0428
S32P | T5134C | none | 239 | 0.139
L125F | A5415T | none | 128 | 0.0471
R17W | A5089T | integrase E287V | 383 | 0.0467
H187Y | C5599T | Vpr P14L | 487 | 0.195
F112S | T5375C | none | 321 | 0.0564
E171K | G5551A | none | 141 | 0.539
W89C | G5307T | none | 172 | 0.0361
I18F | A5092T | integrase D288V | 194 | 0.0264
S52T | G5195C | none | 52 | 0.0492
A35D | C5144A | none | 132 | 0.136
K63E | A5227G | none | 198 | 0.0628
K92R | A5315G | none | 536 | 0.330
V7E | T5060A | integrase silent | 201 | 0.0447
M29T | T5126C | none | 103 | 0.149
G138R | G5452C | none | 76 | 0.0318
W38R | T5152A | none | 495 | 0.0517
W21C | G5103T | none | 126 | 0.122
F39S | T5156C | none | 180 | 0.114
N190K | T5610A | Vpr W18R | 782 | 0.0321
D61G | A5222G | none | 365 | 0.0255
L24F | A5112T | none | 344 | 0.141
C114W | T5382G | none | 44 | 0.192
D78H | G5272C | none | 36 | 0.0863
I87K | T5300A | none | 260 | 0.0418
R23G | A5107G | none | 359 | 0.798
M16L | A5086T | integrase D286V | 230 | 0.0334
N190T | A5609C | Vpr E17D | 148 | 0.0971
V25L | G5113C | none | 69 | 0.0371
I66V | A5236G | none | 170 | 0.0366
M8L | A5062T | integrase D278V | 235 | 0.0286
H56N | C5206A | none | 61 | 0.168
N19S | A5096G | none | 247 | 0.0725
H28R | A5123G | none | 198 | 0.0775
G84E | G5291A | none | 189 | 0.156
S116P | T5386C | none | 180 | 0.0671
W89S | G5306C | none | 44 | 0.0706
G138R | G5452A | none | 250 | 0.0917
V65A | T5234C | none | 251 | 0.0805
M1V | A5041G | integrase Y271C | 259 | 0.0607
R77K | G5270A | none | 99 | 0.377
Q6K | C5056A | integrase A276E | 128 | 0.105
S52R | A5194C | none | 120 | 0.0852
S144T | T5470A | none | 932 | 0.0323
S165C | A5533T | none | 270 | 0.0352
P49L | C5186T | none | 230 | 0.178
D14E | C5082A | integrase Q285K | 46 | 0.222
Q136L | A5447T | none | 270 | 0.0805
T47N | C5180A | none | 100 | 0.153
T47A | A5179G | none | 169 | 0.0605
T74K | C5261A | none | 58 | 0.161
E88V | A5303T | none | 268 | 0.0464
P100L | C5339T | none | 201 | 0.0309
C114S | G5381C | none | 43 | 0.140
M1I | G5043A | integrase G272R | 177 | 0.621
K63I | A5228T | none | 246 | 0.0442
H28L | A5123T | none | 321 | 0.0637
S186T | G5597C | Vpr E13D | 94 | 0.134
W11R | T5071C | integrase V281A | 294 | 0.0534
Q97H | A5331T | none | 491 | 0.0348
A119D | C5396A | none | 178 | 0.0610
K160N | G5520T | none | 145 | 0.0655
I154T | T5501C | none | 104 | 0.107
M1L | A5041T | integrase Y271F | 351 | 0.0767
P156S | C5506T | none | 206 | 0.261
R167W | A5539T | none | 161 | 0.0393
R132W | A5434T | none | 195 | 0.0371
A149T | G5485A | none | 619 | 0.135
H80Q | T5280A | none | 401 | 0.0387
F112C | T5375G | none | 58 | 0.0416
H73N | C5257A | none | 109 | 0.0713
V85A | T5294C | none | 237 | 0.0983
K22R | A5105G | none | 404 | 0.0570
N190S | A5609G | Vpr silent | 577 | 0.0498
T20S | A5098T | none | 314 | 0.0407
G60R | G5218A | none | 175 | 0.328
N48S | A5183G | none | 255 | 0.0301
D99N | G5335A | none | 161 | 0.357
V142I | G5464A | none | 261 | 0.139
I154K | T5501A | none | 187 | 0.135
K26R | A5117G | none | 175 | 0.0438
R15W | A5083T | integrase Q285L | 337 | 0.0455
E54G | A5201G | none | 201 | 0.0763
K26E | A5116G | none | 338 | 0.0378
K34N | A5142T | none | 332 | 0.0231
N122Y | A5404T | none | 146 | 0.0744
P162A | C5524G | none | 65 | 0.0487
G126E | G5417A | none | 126 | 0.345
L145Q | T5474A | none | 684 | 0.0200

The last 8 entries again:

With R15W (base A5083T, other frame integrase Q285L, input reads 337) the assay gave 0.0455.
With E54G (base A5201G, input reads 201) the assay gave 0.0763.
With K26E (base A5116G, input reads 338) the assay gave 0.0378.
With K34N (base A5142T, input reads 332) the assay gave 0.0231.
With N122Y (base A5404T, input reads 146) the assay gave 0.0744.
With P162A (base C5524G, input reads 65) the assay gave 0.0487.
With G126E (base G5417A, input reads 126) the assay gave 0.345.
With L145Q (base T5474A, input reads 684) the assay gave 0.0200.

Nucleotide positions follow pNL4-3. The authors read an index above 1 as above wild type (1.9% of all changes in the genome). Since each clone held several changes (about five per kb), neutral changes can read low.

Data from the supplement of Al-Mawsawi et al. 2014, doi:10.1186/s12977-014-0124-6.